Pooled drug test results. Numbers come from NIAID ChemDB, via PubChem.

Common to all: whole-cell or culture tests; organism: HIV-1; read-out: fold resistance

An empty or dashed field is not shown.

| smiles | setting | strain | read by | cell line | changes | result |
|---|---|---|---|---|---|---|
| CC(C)(C)NC(=O)[C@@H]1C[C@@H]2CCCC[C@@H]2CN1C[C@@H](O)[C@H](Cc1ccccc1)NC(=O)[C@H](CC(N)=O)NC(=O)c1ccc2ccccc2n1 |  | TM | p24 | PBMC | MDR | 18 |
| Cc1cn([C@H]2C[C@H](N=[N+]=[N-])[C@@H](CO)O2)c(=O)[nH]c1=O |  |  | p24 | CD4+HELA + HeLa | RT-M184V | 0.4375 |
| Nc1nc2c(ncn2[C@H]2CO[C@@H](CO)O2)c(=O)[nH]1 |  |  | cytopathic effect / MTT | MT-2 | RT-Q151M V75I | >23 |
| Nc1ccn([C@H]2C[C@H](O)[C@](CO)(CF)O2)c(=O)n1 |  |  | β-galactosidase | HeLa | RT-M184V | 435 |
| CC(C)CN(C[C@@H](O)[C@H](Cc1ccccc1)NC(=O)O[C@H]1CCO[C@H]2OCC[C@H]21)S(=O)(=O)c1ccc2nc(NC3CC3)sc2c1 |  | NL4-3 | p24 / luminescence | MT-4 | L10I I15V K20R L24I V32I M36I M46I L63P K70Q V82A I84V L89M | 107 |
| Fc1cccc(F)c1C1SCc2nc3ccccc3n21 |  |  | cytopathic effect | CEM | RT-E138K | 1.25 |
| Nc1ccn([C@@H]2CO[C@H](CO)S2)c(=O)n1 |  | HXB2D (RT-M184V) | p24 | PBMC | RT-M184V | 0.53 |
| COc1cc(C)nc(N2C(=O)CSC2c2c(Cl)cccc2Cl)n1 |  |  | cytopathic effect | CEM | RT-L100I | 9.3 |
| O=c1[nH]cnc2c1ncn2[C@H]1CC[C@@H](CO)O1 |  | RT-M41L T69SSG T215Y | β-galactosidase | HeLa | RT M41L T69SSG insertion T215Y | 3.13 |
| CC(C)c1c(CO)cn(Cc2ccncc2)c1Sc1cc(Cl)cc(Cl)c1 |  |  | cytopathic effect / MTT |  | RT-K103N | <76.7 |
| O=c1[nH]cnc2c1ncn2[C@H]1CC[C@@H](CO)O1 |  | HxB2D(RT-D67G) | p24 | PBMC | RT-D67G | 1.79 |
| Nc1ccn([C@@H]2CO[C@H](CO)S2)c(=O)n1 |  | RF | p24 | C8166 | RT-M184V | 18.2 |
| Nc1ccn([C@@H]2CS[C@H](CO)O2)c(=O)n1 |  | 56252-1 NRTI resistant recombinant | RT activity | PBMC | RT-T69K K70G V75I F77L F116Y Q151M M184V | 89 |
| Cc1cn([C@H]2C=C[C@@H](CO)O2)c(=O)[nH]c1=O |  |  | cytopathic effect / MTT | MT-2 | RT-Q151M V75I | 3.2 |
| C#C[C@]1(CO)O[C@@H](n2cc(C)c(=O)[nH]c2=O)C[C@@H]1O |  |  | β-galactosidase | HeLa | RT-Y181C | 0.361 |
| Cc1cn([C@H]2C[C@H](N=[N+]=[N-])[C@@H](CO)O2)c(=O)[nH]c1=O |  |  | cytopathic effect | CEM | RT-E138K | 2.28 |
| COc1ccc(S(=O)(=O)N(CC(C)C)C[C@@H](O)[C@H](Cc2ccccc2)NC(=O)O[C@H]2CCO[C@H]3OCC[C@H]32)cc1 |  | NL4-3 | p24 / luminescence | MT-4 | L10I I15V K20R L24I V32I M36I M46I L63P K70Q V82A I84V L89M | >227 |
| CC(=O)Nc1cccc2c1nc(-c1c(F)cccc1F)n2Cc1c(F)cccc1F |  |  | cytopathic effect / MTT | MT-4 | RT-V106A | >12.5 |
| CCCCN1C(=O)C(CC2CCCCC2)NC(=O)C12CCN(Cc1ccc3c(c1)OCCO3)CC2 |  | MM | p24 | PBMC | MDR | 1 |
| CC(C)=CCN1c2cc(Cl)cc3[nH]c(=S)n(c23)C[C@@H]1C |  |  |  | MT-4 | RT-M41L T215Y Y181C | >30 |
| CCNc1cccnc1N1CCN(C(=O)c2cc3cc(OC)ccc3[nH]2)CC1 |  | IIIB NEV(RT-V106A) | syncytia | CEM | RT-V106A | 20 |
| CC(C)=CCN1Cc2cc(Cl)cc3[nH]c(=S)n(c23)C[C@@H]1C |  | IIIB | cytopathic effect | CEM | RT-Y181C | 125 |
| Cn1c2ccccc2c2c1cc(C#N)c(=O)n2-c1ccc([N+](=O)[O-])cc1 |  | Recombinant | luciferase | HeLa | RT-M41L V118I M184V | 9.8 |
| O=c1[nH]cnc2c1ncn2[C@H]1CC[C@@H](CO)O1 |  | 1617-1 NRTI resistant recombinant | RT activity | PBMC | RT-T69K K70G V75I F77L F116Y Q151M M184V | 23 |
| Nc1nc(=O)n([C@H]2CO[C@@H](CO)S2)cc1F |  | HXB2D (RT-K65R) | p24 | PBMC | RT-K65R | 2.17 |
| Nc1cccc(CN2C(=O)N(Cc3ccc4[nH]nc(-c5cccs5)c4c3)[C@H](Cc3ccccc3)[C@H](O)[C@@H](O)[C@H]2Cc2ccccc2)c1 |  | Ritonavir-resistant (PR M46I L63P A71V V82F I84V) |  | MT-2 | PR-M46I L63P A71V V82F I84V | >161 |
| CCOCn1c(Sc2ccccc2)c(CC)c(=O)[nH]c1=O |  | IIIB PYR(RT-Y181C) | syncytia | CEM | RT-Y181C | 52 |
| O=c1[nH]cnc2c1ncn2[C@H]1CC[C@@H](CO)O1 |  | HXB2 | p24 | C8166 | RT-M41L L74V V106A T215Y | 3.61 |
| CC(C)=CCOc1cc(NC(=S)c2ccoc2C)ccc1Cl |  | IIIB | syncytia | CEM | RT-E138K | 3.61 |
| Nc1nc(NC2CC2)c2ncn([C@H]3C=C[C@@H](CO)C3)c2n1 |  | Recombinant | luciferase | HeLa | RT-M41L A62V S68N G112S M184V | 0.6 |
| CCn1c(=O)c(C)cn([C@@H]2O[C@H](CO[Si](C)(C)C(C)(C)C)C3(OS(=O)(=O)C=C3N)[C@H]2O[Si](C)(C)C(C)(C)C)c1=O |  | IIIB NEV(RT-V106A) | syncytia | CEM | RT-V106A | 450 |
| Cc1cn([C@H]2C[C@H](N=[N+]=[N-])[C@@H](CO)O2)c(=O)[nH]c1=O |  | 56252-1 NRTI resistant recombinant | RT activity | PBMC | RT-T69K K70G V75I F77L F116Y Q151M M184V | >1000 |
| CC(C)CN(C[C@@H](O)[C@H](Cc1ccccc1)NC(=O)[C@H](CC(N)=O)NC(=O)c1ccc2ccccc2n1)C(=O)NC(C)(C)C |  | NL4-3 | p24 | MT-4 | PR-I84V | 2 |
| Cc1ccnc2c1NC(=O)c1cccnc1N2C1CC1 |  | HEPT-resistant (RT P236L) | XTT | CEM + CEM-SS | RT-P236L | 2 |
| CC(C)C[C@@H]1[C@H](O)[C@@H](O)[C@@H](CC(C)C)N(Cc2cccc(C(=O)Nc3nc4ccccc4[nH]3)c2)C(=O)N1Cc1cccc(C(=O)Nc2nc3ccccc3[nH]2)c1 | 3 d | RF |  | MT-2 | PR-I84V | 0.339 |
| CC(C)CN(C[C@@H](O)[C@H](Cc1ccccc1)NC(=O)O[C@H]1CCOC1)S(=O)(=O)c1ccc(N)cc1 |  | NL4-3 | p24 / luminescence | MT-4 | L10I N37D G48V I54V L63P G73C I84V L90M | >27 |
| CC(C)c1c(COC(N)=O)cn(Cc2ccncc2)c1Sc1cc(Cl)cc(Cl)c1 |  |  | cytopathic effect / MTT |  | RT-K103N | <100 |
| CC(C)OC(=O)OCOP(=O)(CO[C@H](C)Cn1cnc2c(N)ncnc21)OCOC(=O)OC(C)C |  | 7295-1 NRTI resistant recombinant | RT activity | PBMC | RT-D67N T69N K70R M184V T215F K219Q | 1.1 |
| C=C[C@]1(CO)O[C@@H](n2cc(C)c(=O)[nH]c2=O)C[C@@H]1O |  | RTMDR | β-galactosidase | HeLa | RT | 1.2 |
| Cc1cn([C@H]2C[C@H](N=[N+]=[N-])[C@@H](CO)O2)c(=O)[nH]c1=O |  |  | p24 | PBMC | RT-E89G | 10 |
| Cc1cn([C@H]2C[C@H](N=[N+]=[N-])[C@@H](CO)O2)c(=O)[nH]c1=O |  | NL4-3 | XTT | CEM + CEM-SS | RT-Y181C | 10 |
| Cc1ccnc2c1NC(=O)c1cccnc1N2C1CC1 |  |  | cytopathic effect | CEM | RT-K103N | 69 |
| CC(C)(C)NC(=O)[C@@H]1C[C@@H]2CCCC[C@@H]2CN1C[C@@H](O)[C@H](Cc1ccccc1)NC(=O)[C@H](CC(N)=O)NC(=O)c1ccc2ccccc2n1 |  | RF |  | MT-2 | PR-G48V A71T V82A | 8.95 |
| Nc1nc(=O)n([C@@H]2CO[C@H](CO)S2)cc1F |  | HXB2D (RT-K65R) | p24 | PBMC | RT-K65R | 3.83 |
| Cc1ccnc(N2C(=O)CSC2c2c(Cl)cccc2Cl)n1 |  |  | cytopathic effect | CEM | RT-Y181C | 137.8 |
| CC(C)(C)OC(=O)N[C@@H](Cc1ccccc1)[C@H](O)CNC[C@@H](O)[C@H](Cc1ccc(OCC(=O)N2CCOCC2)cc1)NC(=O)OC(C)(C)C |  | NL4-3 | p24 | MT-2 | PR-V82A | 4 |
| CN[C@H]1CO[C@@H]2OCC[C@H](OC(=O)N[C@@H](Cc3cccc(OC)c3)[C@H](O)CN(CC(C)C)S(=O)(=O)c3ccc4nc(NC(C)C)sc4c3)[C@@H]21 |  | NL4-3 | p24 / luminescence | MT-4 | L23I E34Q K43I M46I I50L G51A L63P A71V V82A T91A | 0.1 |
| CC(C)=CCOc1cc(NC(=S)c2ccsc2C)ccc1Cl |  | IIIB | syncytia | CEM | RT-E138K | 5.56 |
| CCc1c(Sc2ccccn2)n(COCc2ccccc2)c(=O)[nH]c1=O |  | Dihydrocostatolide-resistant (RT-L100I) | XTT | CEM + CEM-SS | RT-L100I | 2 |
| Cc1cc(C)nc(N2C(=O)CSC2c2c(Cl)cccc2Cl)n1 |  |  | cytopathic effect | CEM | RT-Y181C | 101.6 |
| Cc1c(O)cccc1C(=O)N[C@@H](CSc1ccccc1)[C@H](O)CN1C[C@H]2CCCC[C@H]2C[C@H]1C(=O)NC(C)(C)C |  | JSL | p24 | PBMC | MDR | >71 |
| CC(C)(C)NC(=O)[C@@H]1C[C@@H]2CCCC[C@@H]2CN1C[C@@H](O)[C@H](Cc1ccccc1)NC(=O)[C@H](CC(N)=O)NC(=O)c1ccc2ccccc2n1 |  | NL4-3 | p24 | MT-4 | PR-L10R L63P V82T I84V | 4 |
| CCOCn1c(Sc2ccccc2)c(CC)c(=O)[nH]c1=S |  | IIIB E-EBU(RT-Y181C) | syncytia | CEM | RT-Y181C | ≥5000 |
| O=c1[nH]cnc2c1ncn2[C@H]1CC[C@@H](CO)O1 |  | JSL | p24 | PBMC | MDR | 5 |

The first 3 rows once more:

smiles	setting	strain	read by	cell line	changes	result
CC(C)(C)NC(=O)[C@@H]1C[C@@H]2CCCC[C@@H]2CN1C[C@@H](O)[C@H](Cc1ccccc1)NC(=O)[C@H](CC(N)=O)NC(=O)c1ccc2ccccc2n1		TM	p24	PBMC	MDR	18
Cc1cn([C@H]2C[C@H](N=[N+]=[N-])[C@@H](CO)O2)c(=O)[nH]c1=O			p24	CD4+HELA + HeLa	RT-M184V	0.4375
Nc1nc2c(ncn2[C@H]2CO[C@@H](CO)O2)c(=O)[nH]1			cytopathic effect / MTT	MT-2	RT-Q151M V75I	>23

Fold resistance has wild type as its base. Neighbouring rows are from separate reports.